Publication PMC4216207 (Journal of Medicinal Chemistry, 2014)

Test system: lentiviral vector harboring WT IN
Assay type: cell-based, HIV-1

| SMILES | SI (selectivity index) |
| --- | --- |
| O=C(NCc1ccc(F)cc1F)c1c(Nc2ccccc2)c2cccnc2n(O)c1=O [5e, N-(2,4-Difluorobenzyl)-1-hydroxy-2-oxo-4-(phenylamino)-1,2-dihydro-1,8-naphthyridine-3-carboxamide] | >17857 |
| O=C(NCc1ccc(F)cc1F)c1c(NCCc2ccccc2)c2cccnc2n(O)c1=O [5j, N-(2,4-Difluorobenzyl)-1-hydroxy-2-oxo-4-(phenethylamino)-1,2-dihydro-1,8-naphthyridine-3-carboxamide] | >17857 |
| CNc1c(C(=O)NCc2ccc(F)cc2F)c(=O)n(O)c2ncccc12 [5f, N-(2,4-Difluorobenzyl)-1-hydroxy-4-(methylamino)-2-oxo-1,2-dihydro-1,8-naphthyridine-3-carboxamide] | >80645 |
| CC(C)Nc1c(C(=O)NCc2ccc(F)cc2F)c(=O)n(O)c2ncccc12 [5m, N-(2,4-Difluorobenzyl)-1-hydroxy-4-(isopropylamino)-2-oxo-1,2-dihydro-1,8-naphthyridine-3-carboxamide] | >34722 |
